## Share of PSTVd stem 15 variants by leaf site

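A pool of all variants was put on leaves of three Nicotiana benthamiana plants. Progeny were sequenced from the inoculated region (day 5), the margin of the inoculated leaf (day 10) and systemic leaves (day 12).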

PSTVd intermediate strain, stem 15: wild type CUGGAGCGAUCGCUUCGG, pool pattern CUGGAGCGAUNGNNUNNG; upper and lower strand joined, each 5' to 3', the first 9 letters being the upper strand.

Numbers give reads per thousand; 0 = not seen among the reads, higher = more abundant.
Each site shows the three plants.
"Pool" is the share in the plasmid pool used as inoculum, on the same scale.
The inoculated region was read from the minus strand, the other sites from the plus strand.
Sequences that differ at fixed positions probably stem from PCR or sequencing errors, and defective variants can be carried along by functional ones.
With 36,693-63,082 reads a sample, very low values are single reads.
For reference, wild type rose from 10.2 per thousand in the pool to 285, 367, 312 (inoculated region), 785, 865, 782 (leaf margin) and 854, 898, 915 (systemic leaves).

sequence	pool	inoculated region	leaf margin	systemic leaves
CUGGAGCGAUCGCAUGGG	0.954	0.411 / 0.335 / 0.409	0.0620 / 0 / 0.0159	0 / 0 / 0
CUGGAGCGAUCGCAUGUG	1.16	0.235 / 0.230 / 0.242	0.0207 / 0 / 0.0159	0 / 0 / 0
CUGGAGCGAUCGCAUUAG	0.889	0.254 / 0.293 / 0.372	0.0827 / 0.0545 / 0.0159	0 / 0 / 0
CUGGAGCGAUCGCAUUCG	0.937	0.294 / 0.419 / 0.242	0.0827 / 0.0273 / 0.0159	0 / 0 / 0
CUGGAGCGAUCGCAUUGG	0.857	0.294 / 0.251 / 0.242	0 / 0.0818 / 0	0 / 0 / 0
CUGGAGCGAUCGCAUUUG	1.05	0.215 / 0.230 / 0.279	0.0207 / 0.0545 / 0.0317	0 / 0 / 0
CUGGAGCGAUCGCCUAAG	0.970	0.333 / 0.209 / 0.372	0.0620 / 0 / 0.0159	0 / 0 / 0
CUGGAGCGAUCGCCUACG	0.711	0.313 / 0.272 / 0.316	0.0827 / 0 / 0.0159	0 / 0 / 0
CUGGAGCGAUCGCCUAGG	0.921	0.548 / 0.230 / 0.316	0.0827 / 0.0818 / 0.0476	0 / 0 / 0
CUGGAGCGAUCGCCUAUG	0.792	0.235 / 0.230 / 0.316	0.103 / 0.0545 / 0.0317	0 / 0 / 0
CUGGAGCGAUCGCCUCAG	0.873	0.176 / 0.356 / 0.316	0.0620 / 0.0273 / 0.0159	0 / 0 / 0
CUGGAGCGAUCGCCUCCG	0.889	0.294 / 0.168 / 0.186	0.0414 / 0.0273 / 0.0317	0 / 0 / 0
CUGGAGCGAUCGCCUCGG	1.03	29.2 / 15.6 / 16.0	28.2 / 8.78 / 12.8	16.0 / 13.8 / 6.08
CUGGAGCGAUCGCCUCUG	0.873	0.235 / 0.314 / 0.335	0.145 / 0 / 0.0476	0 / 0 / 0
CUGGAGCGAUCGCCUGAG	0.921	0.352 / 0.440 / 0.372	0.0827 / 0 / 0	0 / 0 / 0
CUGGAGCGAUCGCCUGCG	0.840	0.215 / 0.188 / 0.391	0.186 / 0 / 0.0317	0 / 0 / 0
CUGGAGCGAUCGCCUGGG	0.792	0.215 / 0.209 / 0.372	0.0414 / 0 / 0.0159	0 / 0 / 0
CUGGAGCGAUCGCCUGUG	1.08	0.313 / 0.419 / 0.261	0.0620 / 0.0545 / 0.0159	0 / 0 / 0
CUGGAGCGAUCGCCUUAG	1.05	1.92 / 1.13 / 1.32	0.682 / 0.572 / 0.856	1.11 / 0.620 / 0
CUGGAGCGAUCGCCUUCG	0.776	0.450 / 0.126 / 0.242	0.0620 / 0.0545 / 0.0317	0 / 0 / 0
CUGGAGCGAUCGCCUUGG	0.792	0.196 / 0.168 / 0.242	0.103 / 0.0273 / 0.0159	0 / 0 / 0
CUGGAGCGAUCGCCUUUG	0.857	0.352 / 0.209 / 0.242	0.145 / 0.0273 / 0	0 / 0 / 0
CUGGAGCGAUCGCGUAAG	0.743	0.313 / 0.230 / 0.316	0.124 / 0.0273 / 0.0159	0 / 0 / 0
CUGGAGCGAUCGCGUACG	0.873	0.176 / 0.188 / 0.223	0 / 0.0273 / 0.0317	0 / 0 / 0
CUGGAGCGAUCGCGUAGG	0.889	0.294 / 0.293 / 0.428	0 / 0 / 0.0476	0 / 0 / 0
CUGGAGCGAUCGCGUAUG	1.10	0.548 / 0.712 / 0.986	0.0620 / 0 / 0	0 / 0 / 0
CUGGAGCGAUCGCGUCAG	0.776	0.254 / 0.272 / 0.242	0.0827 / 0.0818 / 0.0159	0 / 0 / 0
CUGGAGCGAUCGCGUCCG	2.17	0.548 / 0.586 / 0.558	0 / 0.245 / 0.0476	0 / 0.0443 / 0.0199
CUGGAGCGAUCGCGUCGG	1.12	1.21 / 0.817 / 1.15	0.703 / 1.04 / 0.602	0.713 / 0.842 / 0.857
CUGGAGCGAUCGCGUCUG	0.857	0.254 / 0.251 / 0.186	0.0620 / 0.0818 / 0	0.0198 / 0 / 0
CUGGAGCGAUCGCGUGAG	1.18	0.391 / 0.272 / 0.465	0 / 0.0273 / 0	0 / 0 / 0
CUGGAGCGAUCGCGUGCG	0.986	0.157 / 0.251 / 0.335	0.0620 / 0.0818 / 0.0476	0 / 0 / 0
CUGGAGCGAUCGCGUGGG	0.857	0.215 / 0.293 / 0.465	0.0414 / 0.0545 / 0.0159	0 / 0 / 0
CUGGAGCGAUCGCGUGUG	0.889	0.274 / 0.293 / 0.261	0.0414 / 0.0545 / 0	0 / 0 / 0
CUGGAGCGAUCGCGUUAG	0.921	0.196 / 0.293 / 0.261	0.0414 / 0 / 0.0317	0 / 0 / 0
CUGGAGCGAUCGCGUUCG	0.776	0.470 / 0.335 / 0.372	0.0414 / 0.0273 / 0.0476	0 / 0 / 0
CUGGAGCGAUCGCGUUGG	0.711	0.294 / 0.168 / 0.391	0.0620 / 0.0273 / 0	0 / 0 / 0
CUGGAGCGAUCGCGUUUG	0.711	0.196 / 0.209 / 0.298	0.0207 / 0 / 0.0317	0 / 0 / 0
CUGGAGCGAUCGCUACGG	0.0970	0.137 / 0.0419 / 0.0744	0.124 / 0.0818 / 0.0793	0.0396 / 0.0886 / 0.120
CUGGAGCGAUCGCUCCGG	0.113	0.235 / 0.168 / 0.168	0.186 / 0.191 / 0.222	0.139 / 0.443 / 0.359
CUGGAGCGAUCGCUGCGG	0.0485	0.0587 / 0.0628 / 0.0744	0.0620 / 0.109 / 0.111	0.0990 / 0.133 / 0.0996
CUGGAGCGAUCGCUUAAG	0.776	0.235 / 0.272 / 0.223	0.103 / 0 / 0.0159	0 / 0 / 0
CUGGAGCGAUCGCUUACG	0.808	0.391 / 0.209 / 0.242	0.0827 / 0.0273 / 0.0317	0 / 0 / 0
CUGGAGCGAUCGCUUAGG	0.776	0.567 / 0.544 / 0.391	0.331 / 0.218 / 0.269	0.218 / 0.133 / 0.0797
CUGGAGCGAUCGCUUAUG	0.970	0.235 / 0.209 / 0.391	0 / 0 / 0.0317	0.0198 / 0 / 0.0199
CUGGAGCGAUCGCUUCAG	1.07	21.7 / 55.6 / 19.2	24.7 / 17.3 / 4.44	11.3 / 14.5 / 6.52
CUGGAGCGAUCGCUUCCG	0.905	0.235 / 0.293 / 0.354	0.0414 / 0.0545 / 0	0.0594 / 0.0443 / 0.0598
CUGGAGCGAUCGCUUCGA	0.0646	0.0978 / 0.251 / 0.168	0.0620 / 0.245 / 0.317	0.119 / 0.465 / 0.279
CUGGAGCGAUCGCUUCGC	0.0323	0.0587 / 0.0419 / 0.0931	0 / 0 / 0	0.0396 / 0 / 0
CUGGAGCGAUCGCUUCGG	10.2	285 / 367 / 312	785 / 865 / 782	854 / 898 / 915
CUGGAGCGAUCGCUUCGU	0.129	0.411 / 0.230 / 0.391	0.0207 / 0.409 / 0.587	0.495 / 0.399 / 0.140
CUGGAGCGAUCGCUUCUG	1.07	0.822 / 0.628 / 0.503	0.372 / 0.491 / 0.365	0.218 / 0.199 / 0.239
CUGGAGCGAUCGCUUGAG	0.679	0.411 / 0.272 / 0.409	0.0414 / 0 / 0.0159	0 / 0 / 0
CUGGAGCGAUCGCUUGCG	0.857	0.333 / 0.209 / 0.354	0.0620 / 0.0818 / 0.0317	0 / 0 / 0
CUGGAGCGAUCGCUUGGG	0.954	0.411 / 0.335 / 0.503	0.0207 / 0.136 / 0.159	0.139 / 0.0665 / 0.120
CUGGAGCGAUCGCUUGUG	1.03	0.313 / 0.230 / 0.316	0.0620 / 0 / 0.0159	0.0198 / 0 / 0
CUGGAGCGAUCGCUUUAG	1.79	1.13 / 1.70 / 1.25	0.0207 / 0.0818 / 0.0159	0 / 0 / 0.0399
CUGGAGCGAUCGCUUUCG	0.743	0.274 / 0.335 / 0.149	0.0414 / 0.0818 / 0.0159	0 / 0 / 0
CUGGAGCGAUCGCUUUGG	2.25	20.4 / 8.82 / 7.78	13.3 / 7.63 / 14.5	13.3 / 1.46 / 7.73
CUGGAGCGAUCGCUUUUG	0.921	0.294 / 0.168 / 0.298	0.103 / 0.0273 / 0.0159	0 / 0 / 0
CUGGAGCGAUCGGAUAAG	0.954	0.274 / 0.230 / 0.261	0.0620 / 0.0545 / 0.0317	0 / 0 / 0
CUGGAGCGAUCGGAUACG	0.792	0.313 / 0.230 / 0.596	0.103 / 0 / 0.0476	0 / 0 / 0
CUGGAGCGAUCGGAUAGG	0.824	0.157 / 0.377 / 0.372	0 / 0 / 0.0317	0 / 0 / 0
CUGGAGCGAUCGGAUAUG	0.905	0.215 / 0.209 / 0.316	0.0414 / 0.0273 / 0.0159	0 / 0 / 0

The first 7 entries again:

sequence,pool,inoculated region,leaf margin,systemic leaves
CUGGAGCGAUCGCAUGGG,0.954,0.411 / 0.335 / 0.409,0.0620 / 0 / 0.0159,0 / 0 / 0
CUGGAGCGAUCGCAUGUG,1.16,0.235 / 0.230 / 0.242,0.0207 / 0 / 0.0159,0 / 0 / 0
CUGGAGCGAUCGCAUUAG,0.889,0.254 / 0.293 / 0.372,0.0827 / 0.0545 / 0.0159,0 / 0 / 0
CUGGAGCGAUCGCAUUCG,0.937,0.294 / 0.419 / 0.242,0.0827 / 0.0273 / 0.0159,0 / 0 / 0
CUGGAGCGAUCGCAUUGG,0.857,0.294 / 0.251 / 0.242,0 / 0.0818 / 0,0 / 0 / 0
CUGGAGCGAUCGCAUUUG,1.05,0.215 / 0.230 / 0.279,0.0207 / 0.0545 / 0.0317,0 / 0 / 0
CUGGAGCGAUCGCCUAAG,0.970,0.333 / 0.209 / 0.372,0.0620 / 0 / 0.0159,0 / 0 / 0

Values reported by Wu et al. 2024 (doi:10.1371/journal.ppat.1012142).